The record followed here is patent US9181310B2 (priority 2003, dated 2015).

For the test, the system named is X. citri. The following applies: in vivo.

B1: BombBC: Bacteriophage Outer Membrane Breaching protein of Xanthomonas phage P15 (Xp15) ORF BC, 17.9 kD, SEQ ID NO. 17 (protein, listed as Xanthomonas campestris)
chain: MSDQTDTTQTTPAEKAPPKEIIRGRMPIAVVALARFGSQSTTTTKAAADALGTTVGKIDDIRKNRNFAYVTADFKPTEAQKADGIEWLKRHPVGADALIEELQNLPVATAEESAAFEQVRASARGQNAKTAEGEVAQAGGGNRRKKKEKPAEAGEVQNPPAADGDSLLS
Regarding B1, the “pathogenic symptoms caused by X. citri” value is “greatly reduced”.
